Measured values from publication PMC8565334, “The horizontal transfer of Pseudomonas aeruginosa PA14 ICE PAPI-1 is controlled by a transcriptional triad between TprA, NdpA2 and MvaT”.
For some assays here: Where a protein sequence is shown, tags need not be part of it. For some assays here: The exact form of at least one protein or probe is not confirmed.

Tests used:
[1] = molecular target: TprA (Pseudomonas aeruginosa PA14) (UniProt A0A0H2ZFZ8); assay: EMSA; conditions: shift above 550 nM TprA (0-1200 nM); recombinant protein; protein details: His-tag removed by TEV; label: Cy5-dCTP (PCR incorporation); probe letters rebuilt from the primers and the genome
[2] = molecular target: T1, MvaT (Pseudomonas aeruginosa PA14) (UniProt A0A0H2ZGN7); assay: EMSA; conditions: shift at MvaT >= 750 nM (0-2000 nM); recombinant protein; residues 1-124; protein details: His-tag removed by TEV; label: Cy5-dCTP (PCR incorporation); probe letters rebuilt from the primers and the genome
T1 sequence (looked up): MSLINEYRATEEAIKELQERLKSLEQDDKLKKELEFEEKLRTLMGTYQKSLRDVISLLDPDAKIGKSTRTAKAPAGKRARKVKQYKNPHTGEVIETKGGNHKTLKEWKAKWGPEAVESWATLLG

“TTGCAGGGGTTTCGGAGAAAAAACCTGTGACCCAGAACTCTTTTTCCGTATATTTTAAAGCGAAGTCTTCAACAAGCCTTACCGAGAAAGGAAACAGGATAGTACTGAATCCAGCCACTACCAAGGGGTTAACTGATGCCAGGCTTGGAAATACGGAGCCTTTCCAAGCGACTAAAACAAAGAAGAAAGCTCCCCAGAAAAATTTAGCCCAATAGTATTTAAAGCTCAATTAGCACCCCGTACTGTCTGACCTGAGTTCAACAAAGCATTCTAAAACGATTAGAACTTCTATTTTATCCATTTCTAACAACGATTCCCACCTGGCTCGCTTTAGGCGTAACATGAAAAACCTTCATCGCTCCTAATCCGTTTCCCTTACGCCTGCCTCGCTCACCCTCTGCCTAGTCATCGAGAAATCCCCTCCCCTGTTGCCGAGTATTTCCTGCTGATGCGTGGCGGATGGCCTGCCACTGTGTGCCCCATCATCAAAGGGGGCCTCAATGACCAGGCAGTTGACCAC (double strand) [ppilL2 promoter]”: binds [1]; binds [2].
